{"source": "ChEMBL document CHEMBL2046269", "about": "“Phthalide and isocoumarin derivatives produced by an Acremonium sp. isolated from a mangrove Rhizophora apiculata” (2012)", "test_system": "Cryptococcus neoformans", "conditions": "ATCC 90113"}
{"smiles": "CC1=C[C@H]2O[C@@H]3C[C@@H](O)[C@](C)([C@@]2(C)CC1)[C@]31CO1", "values": [{"measurement": "MIC", "result": 32, "unit": "µg/mL"}]}
